Measured values published in patent US4157396A, “Hydroxamic acid derivatives and medicaments for treatment of urolithiasis and pyelonephrosis comprising such derivatives” (Eisai Co., Ltd., priority 1976, dated 1979).

Assay: Determination of the transfer rate into the urine and calculation of the index
Assay type: in vivo, male rats of SD strain
Settings: calculated from I50 and mean transfer rate into the urine during 6 hours after administration, n = 6
Description: (ii) Determination of the transfer rate into the urine
Transfer rates into the urine of the examination compounds were determined according to the method of Kobashi et al [Refer to Biochemistry (Japan) vol. 44, No. 5, pp. 187-204 (1972) and Yakugaku Zasshi vol. 12, pp. 1564-1572 (1973)] by using the male rats of SD strain having the body weight of about 280 g, administering orally each 100 mg/Kg of the compounds, and measuring the urease inhibitory action in the excreted urine within a specified period of time.
(iii) Calculation of the index
The index was calculated from the resulting values of the above examinations (i) and (ii) according to the following equation: [formula] wherein n is chosen appropriately depending on the value of I50.
The value of the index is referred to as a standard of the urease inhibitory power of the administered examination compound in the urine.
It is seen that the larger the value of the index is, the more effectively the examination compounds transfer into the urine with a form having the urease inhibitory action. Results of the determination

Row | SMILES | Index | Index (listed as control compound I)
1 | COc1ccc(C(=O)NCC(=O)NO)cc1 [Compound A, 2-(para-methoxy-benzamide)-acetohydroxamic acid] | 7.06 and 4.2 | –
2 | COc1cccc(C(=O)NCC(=O)NO)c1 [Compound B, 2-(meta-methoxy-benzamide)-acetohydroxamic acid] | 10.30 and 6.2 | –
3 | CC(=O)Nc1cccc(C(=O)NCC(=O)NO)c1 [Compound M, 2-(meta-acetylaminobenzamide)-acetohydroxamic acid] | 7.5 | –
4 | O=C(CNC(=O)c1ccco1)NO [Compound R, 2-(2-furoilamino)-acetohydroxamic acid] | 11.9 | –
5 | O=C(CNC(=O)c1ccc(Cl)cc1)NO [Control compound I, 2-(para-chloro-benzamide)-acetohydroxamic acid, reference compound] | 1.00 | 1.0

Values joined by “and” are separate entries in the source; they are usually repeats but may differ in a detail not shown here. Equal entries are not always repeated.
